Experimental data taken from patent US20090060984A1, “ANIONIC SURFACTANTS LETHAL TO GRAM-POSITIVE BACTERIA” (priority 2007, published 2009).

Test system: Gram-negative bacteria
Test: Growth on surfactant/TSA agar plates
Type: cell-based
Conditions: agar plates containing sodium bis[2-ethylhexyl]sulfosuccinate
Description: This solution was then aliquoted into sterile petri dishes, approximately 25 mL per plate, and allowed to solidify. The organisms were grown in 5 mL of Trypticase Soy Broth. The sterile broth was inoculated with a single isolated colony from a stock culture and allowed to incubate in a shaking water bath at 37° C. for 8-10 hours. The estimated concentration was about 10^9 CFU/mL. Some plates were tested with a 1:100 dilution of these cultures to arrive at an approximate concentration of 10^7 CFU/mL. Then, 10 μL of each overnight culture was pipetted directly onto the surface of the surfactant/TSA plates, which were then allowed to incubate at 37° C. for 24 hours. Results were based on the presence or absence of bacterial growth on the surface of the agar.

For `CCCCC(CC)COC(=O)CC(C(=O)OCC(CC)CCCC)S(=O)(=O)[O-].[Na+]` (stereo not shown) [NaAOT, Sodium bis(2-ethylhexyl)sulfosuccinate], the “Effect on Gram-negative bacteria tested” value was “resistant”.
